Compound potency records, mixed from different reports. Data source: NIAID ChemDB in PubChem.

All rows: tests in culture; species: Mycobacterium tuberculosis

ECn is the concentration giving n% inhibition of infection, replication or growth. a–b is a range or a potency band. A number after MIC or MFC names an inhibition level or a share of isolates. MIC bound comes from a single tested concentration. Lines come from different laboratories, so protocols vary. Percent inhibition refers to the dose given; in toxicity tests it is the harm to the cells. An empty or dashed field is not shown.

compound	method	read-out	mutations	cell line	strain	conditions	tested at	value
C#CCCCCCCCCC/C=C1\C(=O)O[C@@H](C)[C@H]1O	broth dilution	MIC90						10.16 µg/mL
CC(=O)Nc1c(OC(C)=O)nc2ccc([N+](=O)[O-])cc2c1-c1ccccc1		MIC			H37Rv			>6.25 µg/mL
CN[C@@H]1[C@H](O[C@H]2[C@H](O[C@H]3[C@H](O)[C@@H](O)[C@H](N=C(N)N)[C@@H](O)[C@@H]3N=C(N)N)O[C@@H](C)[C@]2(O)C=O)O[C@@H](CO)[C@H](O)[C@H]1O	visual reading	MIC90	EJMCh4/1 MmpL3 (V285A)		H37Rv			1.4 µM
CC[C@@H](CO)NCCN[C@@H](CC)CO		MIC			90-0216 (DRUG-SUS)			1 µg/mL
NC(=O)c1cnc(C(=O)c2ccc(O)cc2)cn1	resazurin	EC50			H37Rv			>6.25 µg/mL
C[C@]1(COc2ccc(N3CCN(C/C=C/c4c(Cl)cc(Cl)cc4Cl)CC3)cc2)Cn2cc([N+](=O)[O-])nc2O1		MIC			H37Rv			0.006 µg/mL
CC1(C)C(=O)NCCN1C(=O)CCCC(=O)O	broth dilution	MIC90			CDC1551			43 µg/mL
NC(=O)c1cnc(C(=O)c2ccc(Cl)cc2)cn1	resazurin	inhibition			H37Rv		6.25 µg/mL	16%
CC(C)Cc1ccc(C(=O)CCC(=O)NC[C@H]2CN(c3ccc(N4CCCCC4)c(F)c3)C(=O)O2)cc1		MIC			ATCC 27294			>16 µg/mL
NNC(=O)c1ccncc1	visual reading / absorbance	MIC90	EJMCh6C MmpL3  (G253E)		H37Rv			0.07 µM
CS(=O)(=O)C(c1nc2nnc(N)n2[nH]c1=O)c1nc2nnc(N)n2[nH]c1=O	BACTEC	inhibition			H37Rv		12.5 µg/mL	8%
CN[C@@H]1[C@H](O[C@H]2[C@H](O[C@H]3[C@H](O)[C@@H](O)[C@H](N=C(N)N)[C@@H](O)[C@@H]3N=C(N)N)O[C@@H](C)[C@]2(O)C=O)O[C@@H](CO)[C@H](O)[C@H]1O	resazurin	MIC			H37Rv			0.25 µg/mL
CN(C)CC=C(c1ccc(Br)cc1)c1ccc(-c2ccc(Br)cc2)cc1		MIC			ALI 282			≤4 µg/mL
CN(CC1CCN(c2ccc(OC(F)(F)F)cc2)CC1)c1ccc(OC[C@@]2(C)Cn3cc([N+](=O)[O-])nc3O2)cc1		MIC			H37Rv			0.05 µg/mL
Cc1ccn2nc(C)c(C(=O)NCc3ccc(-c4ccc(OC(F)(F)F)cc4)nc3)c2c1	resazurin	MIC	katG mutant isoniazid resistant		INH-R1			0.079 µg/mL
NC[C@H]1O[C@H](O[C@H]2[C@H](O)[C@@H](O[C@H]3O[C@H](CO)[C@@H](O)[C@H](N)[C@H]3O)[C@H](N)C[C@@H]2N)[C@H](O)[C@@H](O)[C@@H]1O		MIC			RM22			96 µg/mL
CC1COc2c(N3CCN(C)CC3)c(F)cc3c(=O)c(C(=O)O)cn1c23		MIC			H37RV (PAS-R)			0.63–1.25 µg/mL
CC12CC(=O)OC(C1)C(=O)c1ccccc12	BACTEC	inhibition			H37Rv		12.5 µg/mL	18%
O=c1[nH]c2ccc(Cl)cc2c(-c2ccccc2)c1-[n+]1ccccc1		inhibition			H37Rv		6.25 µg/mL	0%
COc1cc2c(cc1O)C[C@H]1c3c(cc(O)c(OC)c3-2)CCN1C	BACTEC	MIC bound			H37Rv			>12.8 µg/mL
C[C@]1(COc2ccc(N3CCN(C/C=C/c4cc(Cl)ccc4Cl)CC3)cc2)Cn2cc([N+](=O)[O-])nc2O1		MIC			H37Rv			0.024 µg/mL
Nc1ncnc2c1ncn2[C@@H]1O[C@H](COP(=O)(O)OC(=O)NS(=O)(=O)NC(=O)c2ccccc2O)[C@@H](O)[C@H]1O	broth dilution	MIC90						0.13 µg/mL
CC(C)Cc1ccc(CN(C)C2CCN(c3ccc(OC[C@@]4(C)Cn5cc([N+](=O)[O-])nc5O4)cc3)CC2)cc1		MIC			H37Rv			0.012 µg/mL
COCN1C(=O)CN=C(c2ccccc2)c2cc(NO)ccc21	BACTEC	MIC bound			H37Rv			>12.5 µg/mL
CC(C)=Nc1c(-c2ccccc2)c2cc(Cl)ccc2[nH]c1=O		EC50			H37Rv			>6.25 µg/mL
O=C(CCC(=O)c1ccc(Cl)cc1)NC[C@H]1CN(c2ccc(N3CCCCC3)c(F)c2)C(=O)O1		MIC			10 clinical isolates sensitive			4–8 µg/mL
CN(C)CCCN=c1c2ccccc2n(C)c2[nH]c(=O)n(C)c(=O)c12	BACTEC	inhibition			H37Rv		12.5 µg/mL	33%
C[C@]1(COc2ccc(N3CCC(COCc4cccc(OC(F)(F)F)c4)CC3)cc2)Cn2cc([N+](=O)[O-])nc2O1		MIC			H37Rv			0.024 µg/mL
CCCCN1CCN(c2ccc3nc(-c4ccc5nc(-c6ccc(OCC)cc6)[nH]c5c4)[nH]c3c2)CC1	broth dilution / turbidity	MIC90			H37Rv			9.8 µg/mL
CN(C)C/C=C(\c1ccc(Cl)cc1)c1ccc(-c2ccc(Br)cc2)cc1		MIC			ALI 258			≤5 µg/mL
CC[C@@H](CO)NCCN[C@@H](CC)CO		MIC			RM22			15 µg/mL
CSc1ccc(C(=O)CCC(=O)NC[C@H]2CN(c3ccc(N4CCOCC4)c(F)c3)C(=O)O2)cc1		MIC			ATCC 27294			0.5 µg/mL
NNC(=O)c1ccncc1		MIC			92-0492 (MDR)			5 µg/mL
O=C(CCC(=O)c1ccc(F)cc1F)NC[C@H]1CN(c2ccc(N3CCOCC3)c(F)c2)C(=O)O1		MIC			10 clinical isolates sensitive			1–4 µg/mL
NNC(=O)c1ccncc1	resazurin	MIC	katG mutant isoniazid resistant		INH-R1			>27 µg/mL
O=C(O)c1cc(O)c2c(c1)[C@H]([C@H]1c3cc(C(=O)O)cc(O)c3C(=O)c3c(O[C@@H]4O[C@H](CO)[C@@H](O)[C@H](O)[C@H]4O)cccc31)c1cccc(O[C@@H]3O[C@H](CO)[C@@H](O)[C@H](O)[C@H]3O)c1C2=O	BACTEC	MIC bound			H37Rv			>12.5 µg/mL
NC(=S)c1cnc(C(=O)c2ccccc2)cn1	resazurin	EC50			H37Rv			>6.25 µg/mL
CC1(C)CC(N=c2cc3n(-c4cc(Cl)cc(Cl)c4)c4ccccc4nc-3cc2Nc2cc(Cl)cc(Cl)c2)CC(C)(C)N1		MIC			TBRP274 (INH SM-resistant)			0.03 µg/mL
CN(C)C/C=C(\c1ccc(N)cc1)c1ccc(-c2ccc(Br)cc2)cc1		MIC			H37Ra			19.6 µg/mL
CCCCCCC/C=C\C(O)C#CC#CC(O)CC	resazurin	MIC90			H37Rv			50.2 µg/mL
CC1(C)CC(N=c2cc3n(-c4cc(Cl)c(Cl)c(Cl)c4)c4ccccc4nc-3cc2Nc2cc(Cl)c(Cl)c(Cl)c2)CC(C)(C)N1		EC50		Macrophages	H37Rv	inside macrophages		<0.005 µg/mL
CO[C@H]1/C=C/O[C@@]2(C)Oc3c(C)c(O)c4c(O)c(c(/C=N/N5CCN(C6CCCC6)CC5)c(O)c4c3C2=O)NC(=O)/C(C)=C\C=C\[C@H](C)[C@H](O)[C@@H](C)[C@@H](O)[C@@H](C)[C@H](OC(C)=O)[C@@H]1C		MIC			RM22			32 µg/mL
CC[C@@H](CO)NCCN[C@@H](CC)CO		MIC			H37Rv			1.25 µg/mL
CO[C@H]1/C=C/O[C@@]2(C)Oc3c(C)c(O)c4c(O)c(c(/C=N/N5CCN(C)CC5)c(O)c4c3C2=O)NC(=O)/C(C)=C\C=C\[C@H](C)[C@H](O)[C@@H](C)[C@@H](O)[C@@H](C)[C@H](OC(C)=O)[C@@H]1C	visual reading / absorbance	MIC90	EJMCh6A MmpL3  (V684A)		H37Rv			0.6 µM
CC1COc2c(N3CCN(C)CC3)c(F)cc3c(=O)c(C(=O)O)cn1c23	agar	MIC	Extensively drug-resistant		H37Rv			34.59 µM
N#Cc1cnc(C(=O)c2ccc(O)cc2)cn1	resazurin	inhibition			H37Rv		6.25 µg/mL	3%
C=CCNC(=S)/N=C/C(C(=O)Nc1ccccc1C)=C(\C)O	resazurin	inhibition			H37Rv		6.25 µg/mL	-16%
CCc1cc(C(N)=S)ccn1		MIC			H37Rv			1.25 µg/mL
NNC(=O)c1ccncc1		MIC			H37Rv			0.05 µg/mL
CN(C)C/C=C(/c1ccccc1)c1ccc(-c2ccc(Br)cc2)cc1		MIC			ALI 544			20 µg/mL
O=C1CSC2=NCC3(NN12)c1ccccc1-c1ccccc13	BACTEC	MIC bound			H37Rv			>12.5 µg/mL
CN[C@@H]1[C@H](O[C@H]2[C@H](O[C@H]3[C@H](O)[C@@H](O)[C@H](N=C(N)N)[C@@H](O)[C@@H]3N=C(N)N)O[C@@H](C)[C@]2(O)C=O)O[C@@H](CO)[C@H](O)[C@H]1O		MIC			RM22			32 µg/mL
Cc1ccc(/C(=C\CN(C)C)c2ccc(-c3ccc(Br)cc3)cc2)cc1		MIC			H37Rv			79 µg/mL
NNC(=O)c1ccncc1		MIC			H37Rv			≤0.125 µg/mL
CC1=C(C)C(=O)O[C@H]([C@](C)(O)[C@]2(O)CC[C@@]3(O)[C@@H]4C[C@H]5O[C@]56CC=CC(=O)[C@]6(C)[C@H]4CC[C@]23C)C1	BACTEC	inhibition			H37Rv		12.5 µg/mL	6%
NC(=S)c1cnc(C(=O)c2ccc(Cl)cc2)cn1	resazurin	EC50			H37Rv			<6.25 µg/mL
OCCOCCN1CCN(CCCN2c3ccccc3Sc3ccc(C(F)(F)F)cc32)CC1	BACTEC	inhibition			H37Rv		12.5 µg/mL	97%
N#CC1=C([N+](=O)[O-])NC2OC[C@@H](OCc3ccc(OC(F)(F)F)cc3)CN12	broth dilution	MIC			wtH37Rv			>100 µM
O=C1C(Cl)=C(n2c(=O)oc3ccccc32)C(=O)c2ccccc21	BACTEC	MIC bound			H37Rv			>12.5 µg/mL
CC1(C)CC[C@]2(C(=O)O)CC[C@]3(C)C(CC[C@@H]4[C@@]5(C)C[C@H](O)CC(C)(C)[C@@H]5CC[C@]43C)[C@@H]2C1	resazurin	MIC			INH-R (ATCC 35822)			25 µg/mL
CC1=NN(c2ccc(Cl)cc2S(=O)(=O)[O-])C(=O)C1N=Nc1ccc(OS(=O)(=O)c2ccc(C)cc2)cc1.[Na+]	BACTEC	MIC bound			H37Rv			>12.8 µg/mL
Nc1c(-c2ccccc2)c2cc(Cl)ccc2[nH]c1=O		MIC			H37Rv			>6.25 µg/mL
NN.NNC(=S)S	BACTEC	MIC bound			H37Rv			≤128 µg/mL
NC(=O)c1cnccn1		MIC			ATCC 35801 niacin-positive			128 µg/mL
COC(=O)[C@]1(C)CCC[C@]2(C)C3C[C@H]4OO[C@@]3(CC[C@@H]12)[C@H]1O[C@@]41C(C)C	BACTEC	MIC bound			H37Rv			>12.8 µg/mL
O=C(O)[C@]1(O)C=C(F)[C@@H](O)[C@H](O)C1	broth dilution	MIC90						10 µg/mL
Cc1nc2nc3n(c(=O)c2nc1C)CCCS3	BACTEC	MIC bound			H37Rv			>12.5 µg/mL
CC(C)N=c1cc2n(-c3ccc(Cl)cc3)c3ccccc3nc-2cc1Nc1ccc(Cl)cc1		MIC			90-0216 (DRUG-SUS)			0.4 µg/mL
COc1cc2c3c(c1OC)Oc1ccc(cc1)CC1c4c(cc(OC)c(OC)c4Oc4ccc(cc4)CC3N(C)CC2)CCN1C	BACTEC	MIC bound			H37Rv			>12.5 µg/mL
C[C@]1(COc2ccc(N3CCN(C/C=C/c4ccc(Cl)cc4)CC3)cc2)Cn2cc([N+](=O)[O-])nc2O1		MIC			H37Rv			0.012 µg/mL
NC(=S)Nn1c(=O)c2ccccc2c2ccccc2c1=O	BACTEC	MIC bound			H37Rv			>12.5 µg/mL
NCC[C@H](O)C(=O)N[C@@H]1C[C@H](N)[C@@H](O[C@H]2O[C@H](CN)[C@@H](O)[C@H](O)[C@H]2O)[C@H](O)[C@H]1O[C@H]1O[C@H](CO)[C@@H](O)[C@H](N)[C@H]1O		MIC			90-0145 (DRUG-SUS)			0.5 µg/mL
O=C1c2cccc(NCCCNCCO)c2C(=O)c2cccc(NCCCNCCO)c21	BACTEC	MIC bound			H37Rv			>12.5 µg/mL
CCCc1ccc(NC2CCN(c3ccc(OC[C@@]4(C)Cn5cc([N+](=O)[O-])nc5O4)cc3)CC2)cc1		MIC			H37Rv			0.024 µg/mL
O=C(Nc1ccccc1[N+](=O)[O-])/C(=N\Nc1cccc(Cl)c1)c1c(O)c2ccccc2oc1=O	BACTEC	inhibition			H37Rv		12.5 µg/mL	11%
C=CC(O)C#CC#CC(O)C1OC1CCCCCCC	resazurin	MIC90			H37Rv			>60 µg/mL
O=C1c2ccccc2-c2nc3ncccc3cc21	resazurin	MIC bound			H37Rv			>6.25 µg/mL
CN[C@@H]1[C@H](O[C@H]2[C@H](O[C@H]3[C@H](O)[C@@H](O)[C@H](N=C(N)N)[C@@H](O)[C@@H]3N=C(N)N)O[C@@H](C)[C@]2(O)C=O)O[C@@H](CO)[C@H](O)[C@H]1O		MIC			H37Rv			5 µg/mL

A second listing of 8 rows from above:

| compound | method | read-out | mutations | cell line | strain | conditions | tested at | value |
|---|---|---|---|---|---|---|---|---|
| CN(C)C/C=C(\c1ccc(Cl)cc1)c1ccc(-c2ccc(Br)cc2)cc1 |  | MIC |  |  | ALI 258 |  |  | ≤5 µg/mL |
| NC(=O)c1cnc(C(=O)c2ccc(O)cc2)cn1 | resazurin | EC50 |  |  | H37Rv |  |  | >6.25 µg/mL |
| O=C1CSC2=NCC3(NN12)c1ccccc1-c1ccccc13 | BACTEC | MIC bound |  |  | H37Rv |  |  | >12.5 µg/mL |
| C[C@]1(COc2ccc(N3CCN(C/C=C/c4c(Cl)cc(Cl)cc4Cl)CC3)cc2)Cn2cc([N+](=O)[O-])nc2O1 |  | MIC |  |  | H37Rv |  |  | 0.006 µg/mL |
| NNC(=O)c1ccncc1 | resazurin | MIC | katG mutant isoniazid resistant |  | INH-R1 |  |  | >27 µg/mL |
| NNC(=O)c1ccncc1 | visual reading / absorbance | MIC90 | EJMCh6C MmpL3  (G253E) |  | H37Rv |  |  | 0.07 µM |
| C#CCCCCCCCCC/C=C1\C(=O)O[C@@H](C)[C@H]1O | broth dilution | MIC90 |  |  |  |  |  | 10.16 µg/mL |
| CC1(C)CC(N=c2cc3n(-c4cc(Cl)c(Cl)c(Cl)c4)c4ccccc4nc-3cc2Nc2cc(Cl)c(Cl)c(Cl)c2)CC(C)(C)N1 |  | EC50 |  | Macrophages | H37Rv | inside macrophages |  | <0.005 µg/mL |